Laboratory results published in article PMC6071264 (Toxins, 2018).
pIC50: −log10 of the molar value.

Test system: C30 anti-STp monoclonal antibody
Test: Competitive ST ELISA with the C30 mAb
Type: binding
Conditions: read-out: IC50, competitive C30 mAb ELISA after denaturation and refolding of STh; STh denatured with 10 mM DTT, 56 °C, 1 h; refolding in GSH/GSSG buffer (0.6/0.4 mM) 1 h room temperature, with or without DsbC or BSA; three independent ELISAs; Figure 3A

`CC(C)C[C@H](NC(=O)[C@H](CCC(=O)O)NC(=O)[C@H](CS)NC(=O)[C@H](CS)NC(=O)[C@H](Cc1ccc(O)cc1)NC(=O)[C@H](CC(N)=O)NC(=O)[C@H](CO)NC(=O)[C@H](CO)NC(=O)[C@@H](N)CC(N)=O)C(=O)N[C@@H](CS)C(=O)N[C@@H](CS)C(=O)N[C@@H](CC(N)=O)C(=O)N1CCC[C@H]1C(=O)N[C@@H](C)C(=O)N[C@@H](CS)C(=O)N[C@H](C(=O)NCC(=O)N[C@@H](CS)C(=O)N[C@@H](Cc1ccc(O)cc1)C(=O)O)[C@@H](C)O` gave a pIC50 of 5.68.
